Record: PubChem BioAssay AID1259414 (Drosophila RNAi Screening Center, 2018)

Test: 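Fly genes that alter Wolbachia amount inside host cells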 (primary screen)
Cell system: Drosophila JW18 cells infected with Wolbachia
Knock-down reagent: long dsRNA against Drosophila genes, 0.25 µg dsRNA per well of a 384-well plate
Timing: 5 days
Challenge: cells persistently infected with Wolbachia before knock-down; no added drug
Read-out: 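Imaged fluorescence in situ signal for Wolbachia 23S rRNA per DAPI-counted host cell, given as a robust z-score within each plate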
Direction: Wolbachia per cell robust z: higher = more Wolbachia per host cell than the plate typical
Rule for the call: 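Hit when robust z is 1.5 or more, or -1.5 or less, in at least two of three replicates; excludes dsRNAs with several or no targets, genes not expressed in JW18 and well A1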
The deposit covers about 24,000 reagents; below is an unselected part of those with a known target gene and a result. In the full data, about 1,210 (5%) got an active call. 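Inactive calls also include excluded dsRNAs with several or no targets, genes unexpressed in JW18, and well A1, regardless of score.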 Unmarked entries are inactive. Names joined by + are all predicted targets of the reagent.

| Wolbachia per cell robust z, rep 1 | Wolbachia per cell robust z, rep 2 | Wolbachia per cell robust z, rep 3 | gene knocked down | dsRNA |
| --- | --- | --- | --- | --- |
| -0.0989 | -0.597 | 0.0744 | CG10165 | DRSC02017 |
| 0.46 | -2.95 | 0.356 | CG15734 | DRSC19701 |
| 0.13 | -0.87 | -0.112 | Snap29 | DRSC04721 |
| -0.119 | 0.00109 | -0.295 | Snap29 | DRSC24658 |
| -0.342 | 0.695 | -0.677 | Gart | DRSC03481 |
| 0.34 | 0.28 | -1.5 | Gart | DRSC25995 |
| 1.24 | 0.112 | -0.332 | MED14 | DRSC08235 |
| 2.22 (active) | 2.14 | 0.798 | MED14 | DRSC23587 |
| -0.985 | 0.354 | -6.69 | CG17124 | DRSC02580 |
| 0.167 | -2.61 | -1.07 | CG17124 | DRSC29139 |
| 0.797 | 1.36 | 1.17 | Top3alpha | DRSC03460 |
| 0.123 | 0.335 | -1.33 | CG3663 | DRSC04402 |
| -0.958 | 0.0597 | -2.3 | CG3663 | DRSC27007 |
| 0.16 | 0.0745 | -1.92 | Rdl | DRSC11264 |
| -0.0481 | -0.605 | -7.09 | Rdl | DRSC27696 |
| -0.956 | -1.73 | -1.23 | lncRNA:CR30121 | DRSC21481 |
| 0.968 | 0.0334 | 0.976 | lncRNA:CR30121 | DRSC27254 |
| -3.48 | -1.02 | 0.52 | CG15719 | DRSC19685 |
| -1.1 | 0.102 | 0.28 | CG9536 | DRSC03254 |
| -0.104 | 0.128 | 0.278 | CG9536 | DRSC24736 |
| 1.37 | 0.805 | -5.93 | CG6908 | DRSC16131 |
| 0 | -0.375 | -0.666 | CG6908 | DRSC25403 |
| -0.687 | -0.777 | -0.621 | CG32544 | DRSC20033 |
| -0.301 | -1.61 | -1.2 | CG32544 | DRSC25570 |
| -1.09 | 0.363 | 0.495 | CG14742 | DRSC14962 |
| -1.94 | -0.567 | 0.469 | OtopLb | DRSC00594 |
| -0.666 | -1.12 | -0.914 | OtopLb | DRSC27337 |
| 0.479 | -0.243 | -0.885 | CG3288 | DRSC11745 |
| 1.35 | 1.05 | 0.905 | CG13175 + CG33964 | DRSC07184 |
| 0.632 | -1.55 | 0.0566 | Or46a + asRNA:CR43467 | DRSC21590 |
| -2.68 | 0.171 | -0.895 | CG15425 | DRSC00440 |
| 0.422 | 0.735 | 1.48 | CG15425 | DRSC24897 |
| -0.0731 | -0.258 | -0.612 | CG14830 | DRSC08876 |
| -0.349 | -1.19 | -0.00761 | mei-S332 | DRSC04704 |
| -2.95 | 0.421 | -1.09 | Eig71Ej | DRSC11157 |
| -0.203 | -0.476 | -0.466 | Eig71Ej | DRSC28224 |
| 1.03 | -0.281 | 0.778 | apn | DRSC15124 |
| 0.887 | -4.63 | 0.774 | CG4887 | DRSC00670 |
| 0.139 | 0.25 | 0.797 | CG4887 | DRSC21563 |
| 0.115 | -0.121 | 0.00121 | CG4887 | DRSC25723 |
| 0.983 | 0.284 | -4.46 | Fatp3 | DRSC04366 |
| -0.34 | -0.163 | 0.357 | Fatp3 | DRSC29135 |
| -0.666 | 0.706 | -0.0446 | CG17549 | DRSC02625 |
| -1.17 | -6.93 | -0.707 | CG7365 | DRSC10824 |
| 0.0349 | -0.0952 | 0.163 | CG7365 | DRSC28680 |
| -1.8 | -0.795 | -0.497 | EMC2A + EMC2B | DRSC15241 |
| -8.46 (active) | -8.92 | -7.18 | mib2 | DRSC02623 |
| -1.1 | -0.632 | -0.117 | Cht10 | DRSC03766 |
| 0.177 | 0.455 | 0.756 | Cht10 | DRSC03767 |
| 0.676 | 0.354 | 2.32 | Cht10 | DRSC03768 |

Targets above whose target name starts with S or s:
| Wolbachia per cell robust z, rep 1 | Wolbachia per cell robust z, rep 2 | Wolbachia per cell robust z, rep 3 | gene knocked down | dsRNA |
| --- | --- | --- | --- | --- |
| 0.13 | -0.87 | -0.112 | Snap29 | DRSC04721 |
| -0.119 | 0.00109 | -0.295 | Snap29 | DRSC24658 |

More reagents follow:
| Wolbachia per cell robust z, rep 1 | Wolbachia per cell robust z, rep 2 | Wolbachia per cell robust z, rep 3 | gene knocked down | dsRNA |
| --- | --- | --- | --- | --- |
| -1.73 | -0.462 | 1.33 | vap | DRSC20275 |
| 0.463 | 0.677 | 1.07 | Sgs5 | DRSC16862 |
| -1.47 | -2.48 | -0.999 | wts | DRSC22975 |
| -0.861 | 0.00451 | -1.41 | wts | DRSC25766 |
| 0.47 | -5.02 | -0.781 | Ptth | DRSC00356 |
| -0.0595 | -0.986 | -0.389 | Sbat | DRSC00160 |
| 0.752 | 0.266 | 0.48 | CG3348 | DRSC15480 |
| 0.858 | -0.416 | -1.26 | CG30020 | DRSC06252 |
| -0.306 | 0.72 | -4.33 | CG30020 | DRSC06730 |
| -1.12 | 0.146 | -9.26 | sqh | DRSC18837 |
| 0.541 | -0.106 | 1.41 | sqh | DRSC23800 |
| 0.53 | -0.164 | 1.22 | CG9107 | DRSC03138 |
| 1.2 | -0.727 | -0.203 | beat-Va | DRSC14192 |
| 0.336 | -0.0199 | -1.09 | Reph | DRSC00634 |
| 0.15 | -0.621 | 0.493 | Reph | DRSC22031 |
| -0.412 | -6.43 | 1.37 | Reph | DRSC29417 |
| 0.732 | 0.733 | -5.33 | CG34436 | DRSC15164 |
| 0.315 | -0.73 | 0.544 | Galt | DRSC03161 |
| 0.365 | 0.181 | -0.362 | CG17127 | DRSC02581 |
| 0.942 | -0.259 | -0.616 | CG17127 | DRSC28608 |
| -0.0587 | 0.41 | -0.093 | mRpS29 | DRSC04398 |
| -2.43 | -1.07 | -0.568 | mRpS29 | DRSC27790 |
| -1.62 | 0.258 | 0.281 | CG31198 | DRSC15891 |
| -4.19 | -1.74 | 0.654 | CG4829 | DRSC19920 |
| -1.17 | 0.037 | -2.14 | Hdc | DRSC07439 |
| -0.453 | 0.0189 | -0.09 | Hdc | DRSC25907 |
| 0.179 | 0.439 | 0.66 | CR14578 + bcd | DRSC20984 |
| -5.01 | 0.81 | -0.643 | Takl1 | DRSC13443 |
| 0.337 | 2.21 | 1.05 | Takl1 | DRSC28251 |
| 2.8 | -1.01 | -0.964 | CG32712 | DRSC17820 |
| 0.0325 | 1.08 | 0.404 | PGAP2 | DRSC00632 |
| 1.1 | -0.335 | 0.694 | PGAP2 | DRSC28496 |
| 0.298 | 1.25 | -1.75 | CG15728 | DRSC19694 |
| -0.195 | -0.896 | -0.964 | CG15728 | DRSC22868 |
| -0.971 | -1.48 | -0.027 | CG15728 | DRSC28662 |
| 0.84 | 0.515 | 1.3 | Art8 | DRSC02530 |
| -3.62 | 0.363 | -5.77 | Or59a | DRSC04631 |
